# Assay results: publication PMC5731819, “Single-molecule studies contrast ordered DNA replication with stochastic translesion synthesis” (eLife, 2017)
# T1: E. coli DNA sliding clamp β (E. coli, UniProt P0A988 1-366, maleimide-Atto647N on a single cysteine residue (position not given))
# T1 construct: DNA polymerase III subunit beta (sliding clamp β), E. coli, gene dnaN; also called β-clamp; β2 clamp; not shown: His tag (from the vector pET28a)
# T1 sequence (looked up): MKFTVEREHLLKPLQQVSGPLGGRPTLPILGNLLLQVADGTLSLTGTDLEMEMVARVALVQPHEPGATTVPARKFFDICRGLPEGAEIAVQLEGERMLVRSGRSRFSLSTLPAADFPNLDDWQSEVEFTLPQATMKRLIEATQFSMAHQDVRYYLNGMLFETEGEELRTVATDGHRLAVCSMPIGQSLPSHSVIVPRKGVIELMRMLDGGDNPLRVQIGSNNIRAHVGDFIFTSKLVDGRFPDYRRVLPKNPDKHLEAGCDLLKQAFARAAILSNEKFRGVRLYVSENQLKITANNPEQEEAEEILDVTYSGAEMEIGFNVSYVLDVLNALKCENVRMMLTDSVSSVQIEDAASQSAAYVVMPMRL
# T2: Pol IIIα (polymerase subunit α of Pol IIIcore), Atto 488 labelled (E. coli, UniProt P10443 1-1160, Atto 488 (CoA-linked) conjugated by Sfp to the N-terminal Ybbr tag)
# T2 construct: DNA polymerase III subunit alpha (Pol IIIα), E. coli, gene dnaE; Observed as a subunit of Pol IIIcore on clamp-DNA; also called Pol IIIα-NYbbr; Pol IIIα-Atto 488
# T2 sequence (looked up): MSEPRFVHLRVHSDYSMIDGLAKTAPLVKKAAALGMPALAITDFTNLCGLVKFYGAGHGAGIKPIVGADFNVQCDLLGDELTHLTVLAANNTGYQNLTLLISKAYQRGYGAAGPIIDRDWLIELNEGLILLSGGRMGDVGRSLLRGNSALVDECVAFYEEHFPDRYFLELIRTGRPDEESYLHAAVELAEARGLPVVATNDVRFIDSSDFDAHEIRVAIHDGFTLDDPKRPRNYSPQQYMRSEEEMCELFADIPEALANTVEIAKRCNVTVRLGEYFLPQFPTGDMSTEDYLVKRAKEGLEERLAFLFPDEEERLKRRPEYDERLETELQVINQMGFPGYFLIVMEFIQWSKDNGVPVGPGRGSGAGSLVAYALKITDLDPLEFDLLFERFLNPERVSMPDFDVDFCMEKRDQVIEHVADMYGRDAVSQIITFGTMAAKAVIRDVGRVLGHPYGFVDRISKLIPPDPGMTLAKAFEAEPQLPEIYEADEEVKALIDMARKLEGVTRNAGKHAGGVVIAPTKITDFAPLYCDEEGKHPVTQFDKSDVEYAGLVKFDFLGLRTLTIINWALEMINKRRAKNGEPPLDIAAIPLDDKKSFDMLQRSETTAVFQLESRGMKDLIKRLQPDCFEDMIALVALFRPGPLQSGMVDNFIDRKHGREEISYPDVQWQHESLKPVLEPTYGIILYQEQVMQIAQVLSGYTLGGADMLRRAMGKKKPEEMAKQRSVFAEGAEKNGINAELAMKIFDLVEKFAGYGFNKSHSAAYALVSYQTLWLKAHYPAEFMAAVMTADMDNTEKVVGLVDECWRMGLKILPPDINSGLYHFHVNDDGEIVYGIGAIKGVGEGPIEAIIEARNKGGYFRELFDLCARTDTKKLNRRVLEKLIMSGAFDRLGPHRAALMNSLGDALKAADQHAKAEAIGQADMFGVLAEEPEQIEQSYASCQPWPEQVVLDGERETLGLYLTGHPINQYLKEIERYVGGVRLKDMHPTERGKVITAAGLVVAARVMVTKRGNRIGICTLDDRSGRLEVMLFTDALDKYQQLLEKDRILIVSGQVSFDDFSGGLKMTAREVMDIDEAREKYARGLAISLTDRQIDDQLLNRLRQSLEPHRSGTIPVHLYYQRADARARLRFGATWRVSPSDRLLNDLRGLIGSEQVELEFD
# B1: Pol IIIcore (α, ε, θ), wild type, labelled on the α subunit (complex, E. coli)
# chain 1: T2 sequence (looked up)
# chain 2: MSTAITRQIVLDTETTGMNQIGAHYEGHKIIEIGAVEVVNRRLTGNNFHVYLKPDRLVDPEAFGVHGIADEFLLDKPTFAEVADEFMDYIRGAELVIHNAAFDIGFMDYEFSLLKRDIPKTNTFCKVTDSLAVARKMFPGKRNSLDALCARYEIDNSKRTLHGALLDAQILAEVYLAMTGGQTSMAFAMEGETQQQQGEATIQRIVRQASKLRVVFATDEEIAAHEARLDLVQKKGGSCLWRA
# chain 3: MLKNLAKLDQTEMDKVNVDLAAAGVAFKERYNMPVIAEAVEREQPEHLRSWFRERLIAHRLASVNLSRLPYEPKLK
# modifications: Atto 488 (CoA-linked) conjugated by Sfp to the N-terminal Ybbr tag
# notes: DNA polymerase III subunit alpha (Pol IIIα), E. coli, gene dnaE; DNA polymerase III subunit epsilon (proofreading exonuclease ε), E. coli, gene dnaQ; DNA polymerase III subunit theta (θ), E. coli, gene holE; also called replicative DNA polymerase; source: assembly of the core not described; not shown: His tag (from the vector pET28a); copies: + +
# B2: proofreading exonuclease ε (subunit of Pol IIIcore), Atto 565 labelled (enzyme, E. coli, UniProt P03007 1-243, looked up)
# chain: B1 chain 2
# modifications: Atto 565 (CoA-linked) conjugated by Sfp to the N-terminal Ybbr tag
# notes: DNA polymerase III subunit epsilon (ε), E. coli, gene dnaQ; Observed as a subunit of Pol IIIcore on clamp-DNA; also called ε-NYbbr; ε-Atto 565; not shown: His tag (from the vector pET28a)
# Experiments:
# [1] = molecular target: T1, E. coli DNA sliding clamp β; experiment: co-localization single-molecule spectroscopy (CoSMoS, TIRF); labelled Pol IIIcore (30 nM) on β-clamp loaded on surface-held matched DNA, no dNTPs; 23 °C, 20 mM Tris-HCl pH 7.5, 50 mM potassium glutamate, 8 mM MgCl2; settings: both partners purified
# [2] = molecular target: T2, Pol IIIα (polymerase subunit α of Pol …); experiment: co-localization single-molecule spectroscopy (CoSMoS, TIRF); Pol IIIcore with Atto 488 on α and Atto 565 on ε, on β-clamp loaded on surface-held DNA; settings: both partners purified
Binder,lifetime on clamp-DNA [1] [s],binding result [2]
B1,15.7,–
B2,–,binds
